{"source": "patent US9359622B2", "about": "“Method for biotechnological production of dihydrochalcones” (Symrise AG, priority 2012, dated 2016)", "key": {"enzymes CHI and ERED [1]": {"tested_on": "enzymes CHI and ERED", "assay": "Anaerobic cultivation of E. coli expressing CHI and ERED with naringenin, HPLC", "format": "cell-based, E. ramulus DSM 16296"}, "enzymes CHI and ERED [2]": {"tested_on": "enzymes CHI and ERED", "assay": "Anaerobic fermentation with CHI and ERED; 10 mM naringenin", "format": "cell-based, E. ramulus DSM 16296"}}}
{"smiles": "O=C1C[C@@H](c2ccc(O)cc2)Oc2cc(O)cc(O)c21", "note": "[Naringenin]", "values": [{"measurement": "Naringenin", "setting": "enzymes CHI and ERED [1]; time 0.25 h", "value": 1.00, "unit": "mM"}, {"measurement": "Naringenin", "setting": "enzymes CHI and ERED [1]; time 1.75 h", "value": 0.77, "unit": "mM"}, {"measurement": "Naringenin", "setting": "enzymes CHI and ERED [1]; time 3.25 h", "value": 0.59, "unit": "mM"}, {"measurement": "Naringenin", "setting": "enzymes CHI and ERED [1]; time 4.75 h", "value": 0.45, "unit": "mM"}, {"measurement": "Naringenin", "setting": "enzymes CHI and ERED [1]; time 6.25 h", "value": 0.44, "unit": "mM"}, {"measurement": "Naringenin", "setting": "enzymes CHI and ERED [1]; time 10.25 h", "value": 0.42, "unit": "mM"}, {"measurement": "Naringenin", "setting": "enzymes CHI and ERED [1]; time 21.00 h", "value": 0.29, "unit": "mM"}, {"measurement": "Naringenin", "setting": "enzymes CHI and ERED [1]; time 26.00 h", "value": 0.27, "unit": "mM"}]}
{"smiles": "O=C(CCc1ccc(O)cc1)c1c(O)cc(O)cc1O", "note": "[Phloretin]", "values": [{"measurement": "Phloretin", "setting": "enzymes CHI and ERED [1]; time 0.25 h", "value": 0.09, "unit": "mM"}, {"measurement": "Phloretin", "setting": "enzymes CHI and ERED [1]; time 1.75 h", "value": 0.44, "unit": "mM"}, {"measurement": "Phloretin", "setting": "enzymes CHI and ERED [1]; time 3.25 h", "value": 0.62, "unit": "mM"}, {"measurement": "Phloretin", "setting": "enzymes CHI and ERED [1]; time 4.75 h", "value": 0.68, "unit": "mM"}, {"measurement": "Phloretin", "setting": "enzymes CHI and ERED [1]; time 6.25 h", "value": 0.68, "unit": "mM"}, {"measurement": "Phloretin", "setting": "enzymes CHI and ERED [1]; time 10.25 h", "value": 0.74, "unit": "mM"}, {"measurement": "Phloretin", "setting": "enzymes CHI and ERED [1]; time 21.00 h", "value": 0.70, "unit": "mM"}, {"measurement": "Phloretin", "setting": "enzymes CHI and ERED [1]; time 26.00 h", "value": 0.71, "unit": "mM"}, {"measurement": "Phloretin", "setting": "enzymes CHI and ERED [2]; time 1.00 hours", "value": 0.189, "unit": "mM"}, {"measurement": "Phloretin", "setting": "enzymes CHI and ERED [2]; time 2.00 hours", "value": 0.282, "unit": "mM"}, {"measurement": "Phloretin", "setting": "enzymes CHI and ERED [2]; time 3.00 hours", "value": 0.404, "unit": "mM"}, {"measurement": "Phloretin", "setting": "enzymes CHI and ERED [2]; time 4.00 hours", "value": 0.485, "unit": "mM"}, {"measurement": "Phloretin", "setting": "enzymes CHI and ERED [2]; time 5.00 hours", "value": 0.494, "unit": "mM"}, {"measurement": "Phloretin", "setting": "enzymes CHI and ERED [2]; time 6.00 hours", "value": 0.694, "unit": "mM"}, {"measurement": "Phloretin", "setting": "enzymes CHI and ERED [2]; time 10.00 hours", "value": 0.821, "unit": "mM"}, {"measurement": "Phloretin", "setting": "enzymes CHI and ERED [2]; time 22.00 hours", "value": 0.855, "unit": "mM"}, {"measurement": "Phloretin", "setting": "enzymes CHI and ERED [2]; time 26.00 hours", "value": 0.840, "unit": "mM"}, {"measurement": "Phloretin", "setting": "enzymes CHI and ERED [2]; time .00 hours", "value": 0.008, "unit": "mM"}]}
